Results taken from US5629198A (priority 1991, dated 1997).

Tests used:
[1] = system: human peripheral blood lymphocytes (PBL), uninfected system; assay: Living cells in uninfected PBL system (Test Example 7); assay type: cell-based; conditions: 200 μg/ml
Method: (§1) The anti-HIV effects of test substances on human peripheral blood lymphocytes infected with HIV were determined.
(§2) After blood is collected from a vein by a syringe whose interior wall is wetted with heparin, PBL is separated from the blood with Ficol. After this PBL cell is inoculated on a 25-cm^2 culture flask containing 10 ml of a RPMI 1640 medium (including IL-2) added with 20% of a fetal bovine serum so as to contain 7×10^5 cells/ml therein, 40 μl (1 mg/ml) of PHA are added to culture the cells for 2 days. After 2 days, the cells are washed. Thereafter, they are used in assaying the anti-HIV effects of the test substances as PBL cells in an HIV-uninfected system for part of them, and in an HIV-infected system for the remainder. The PBL cells are inoculated on a 25-cm^2 culture flask added with 5 ml of the above medium so as to contain 2×10^6 cells therein. Then, 500 μl (final concentration: 200 μg/ml) of S-HSA-EDC-Hemin are given thereto so as to conduct culture at 37° C. in the presence of 5% CO2, thereby assaying the cytotoxic effect of the test substance. With respect to the infected system on the other hand, 0.5 ml of HTLV-IIIB (10^7 TCID50 /ml) obtained from a culture supernatant of an HIV-persistently infected strain, MOLT-4/HTLV-IIIB is inserted in the PBL cells to culture them for 2 days. Thereafter, the cells are washed, and then inoculated on a 25-cm^2 culture flask added with 5 ml of the medium so as to contain 2×10^6 cells therein. In the same manner as described above, S-HSA-EDC-Hemin is given thereto, thereby conducting culture at 37° C. in the presence of 5% CO2. After 4 days, the number of cells are counted to calculate the number of HIV envelope protein gp120 positive cells, analysis making use of FACS and the quantity of P24 protein produced.

[2] = system: HIV envelope protein gp120 positive cells; assay: gp120 positive cells in HIV-infected PBL system, FACS (Test Example 7); assay type: cell-based, human; conditions: 200 μg/ml
Method: as §1, §2

[3] = system: mixed culture of Molt-4/C18 cells and Molt-4/IIIB cells; assay: Inhibiting effect on formation of multinucleated giant cells, mixed culture (Test Example 8 (1)); assay type: cell-based, human; conditions: mixed culture system and cell-free system
Method: (1) The inhibiting effects of test substances on the formation of multinucleated giant cells in a mixed culture system of Molt-4/C18 cells and Molt-4/IIIB cells were investigated.
Molt-4/C18 cells in a logarithmic growth phase were inoculated in a proportion of 2.5×10^4 cells/well (25 μl) on a 96-well flat-bottom plate. Similarly, Molt-4/HTL-VIIIB cells in a logarithmic growth phase were inoculated in a proportion of 0.5×10^4 cells/well (25 μl) on the same plate. Then, solutions of the test substances in various concentrations were separately added in an amount of 50 μl, followed by their culture at 37° C. under conditions of 5% CO2. To wells for a positive control, 50 μl of a culture medium were added in place of the solution of each test substance. To wells for a negative control, 3×10^4 cells/well (50 μl) of Molt-4/C18 cells and 50 μl of the culture medium instead of the solution of each test substance were added. Defining the day the culture was started as Day 0, the culture was continuously conducted for 3 days to observe a state of formation of multinucleated giant cells on Day 3 through a microscope. The state of formation of multinucleated giant cells was evaluated by scoring by 6 ranks with the negative control and the positive control ranked as (-) and (+++++), respectively. […]

[4] = system: human peripheral blood lymphocytes (PBL), uninfected system; assay: Cytotoxic effect on uninfected PBL (Test Example 6); assay type: cell-based; conditions: sixth day, 8640 min
Method: as §1
After blood is collected from a vein by a syringe whose interior wall is wetted with heparin, PBL is separated from the blood with Ficol. After this PBL cell is inoculated on a 25-cm^2 culture flask containing 10 ml of a RPMI 1640 medium (including IL-2) added with 20% of a fetal bovine serum so as to contain 7×10^5 cells/ml therein, 40 μl (1 mg/ml) of PHA are added to culture the cells for 4 days. After 4 days, the cells are washed. Thereafter, they are used in assaying the anti-HIV effects of the test substances as PBL cells in an HIV-uninfected system for part of them, and in an HIV-infected system for the remainder. The PBL cells are inoculated on a 25-cm^2 culture flask added with 5 ml of the above medium so as to contain 2×10^6 cells therein. Then, 500 μl of S-HSA-Hemin or S-HSA-EDC-Hemin are given in various concentrations thereto so as to conduct culture at 37° C. in the presence of 5% CO2, thereby assaying the cytotoxic effects of the test substances in the various concentrations. With respect to the infected system on the other hand, 8 ml of HTLV-IIIB (10^7 TCID50 /ml) obtained from a culture supernatant of an HIV-persistently infected strain, MOLT-4/HTLV-IIIB are inserted in the PBL cells to culture them for 2 hours. Thereafter, the cells are washed, and then inoculated on a 25-cm^2 culture flask added with 5 ml of the above medium so as to contain 2×10^6 cells therein. In the same manner as described above, S-HSA-Hemin or S-HSA-EDC-Hemin is given in the various concentrations thereto, thereby conducting culture at 37° C. in the presence of 5% CO2. After 3, 6 and 9 days from the beginning of the culture, the number of cells are counted to calculate the quantity of the P24 protein produced and TCID50.

[5] = system: HTLV-IIIB in human peripheral blood lymphocytes (PBL); assay: p24 produced in HIV-infected PBL system (Test Example 7); assay type: cell-based, HIV (HTLV-IIIB); conditions: 200 μg/ml
Method: as §1
as §2, with “With respect to the infected system on the other hand, 0.5 ml of HTLV-IIIB (10^7 TCID50 /ml) obtained from a culture supernatant of an HIV-persistently infected strain, MOLT-4/HTLV-IIIB is inserted in the PBL cells to culture them for 2 days. Thereafter, the cells are washed, and then inoculated on a 25-cm^2 culture flask added with 5 ml of the medium so as to contain 2×10^6 cells therein. In the same manner as described above, S-HSA-EDC-Hemin is given thereto, thereby conducting culture at 37° C. in the presence of 5% CO2.” left out

[6] = system: mice; assay: One-administration toxicity test, oral (Test Example 9); assay type: in vivo; conditions: single, 21600 min
Method: A specimen was suspended in distilled water for injection to give a concentration of 50 mg/ml to orally administer (2,000 mg/kg) to 5 groups each consisting of 5 mice by a probe. Defining the day of the administration as 0 day, their weights were measured on the second, fourth, seventh, tenth and fifteenth days.
In each of the toxicity tests, organ autopsy was conducted to all the mice on the fifteenth day after the administration.

S--HSA--EDC-Hemin: complex of succinylated human serum albumin and EDC-Hemin
living cells in uninfected system, % of the control ([1]; after 4 days): 45%
Total number of living cells, uninfected system ([1]; day 0 of culture): 2.0 ×10^6
Total number of living cells, uninfected system ([1]; day 4 of culture (untreated 19.1)): 8.6 ×10^6
gp120 positive cells in infected system compared with the day the test was started ([2]; after 4 days): 16%
killing effect on HIV-infected cells ([2]; after 4 days): has a cytotoxic effect, but exhibits a strong and specific killing effect on HIV-infected cells without being attended with the production of HIV
Number of gp120 positive cells ([2]; day 0 of culture): 0.15 ×10^6
Number of gp120 positive cells ([2]; day 4 of culture (untreated 3.4)): 0.024 ×10^6
effect of inhibiting the adsorption and infection of HIV [3]: have an effect of inhibiting the adsorption and infection of HIV
Living cells in uninfected system ([4]; 15.2 μg/ml): 115%
Living cells in uninfected system ([4]; 30.3 μg/ml): 83%
Living cells in uninfected system ([4]; 60.6 μg/ml): 63%
Living cells in uninfected system ([4]; 91.0 μg/ml): 57%
Amount of p24 produced ([5]; day 0 of culture): 70 ng/mL
Amount of p24 produced ([5]; day 4 of culture (untreated 279)): 8 ng/mL
dose showing no toxicity [6]: ≤ 2,000 mg/kg
